These results are taken from PMC3700907 (PLoS ONE, 2013).

The data set in a line: Spontaneous amyloid fibril formation monitored by ThT binding assay. Type of data set: physicochemical.

SMILES strings stand for the structures.

In the case of `CC(=O)N[C@@H](CC(N)=O)C(=O)N[C@@H](CC(C)C)C(=O)N[C@@H](CCCCN)C(=O)N[C@@H](Cc1c[nH]cn1)C(=O)N[C@H](C(=O)N[C@@H](C)C(=O)NCC(=O)N[C@@H](C)C(=O)N[C@@H](C)C(=O)N[C@@H](C)C(=O)N[C@@H](C)C(=O)NCC(=O)N[C@@H](C)C(=O)N[C@H](C(=O)N[C@H](C(=O)NCC(=O)NCC(=O)N[C@@H](CC(C)C)C(=O)NCC(=O)NCC(N)=O)C(C)C)C(C)C)C(C)C` [mPrP(107–126)], the “average lag time for spontaneous amyloidogenesis” value (754 µM peptide in 20 mM HEPES, pH 7.4, 100 mM NaCl, 0.01% NaN3, 37°C without shaking, ThT fluorescence, mean of three independent measurements) turned out to be 41.2 h. In addition, the spontaneous fibril formation entry (same conditions as mPrP(107–143) and mPrP(127–143): 140 mM NaCl, 20 mM NaOAc, pH 3.7, data not shown) is reported as “did not form fibrils”.
